Pooled drug test results. Numbers come from NIAID ChemDB, via PubChem.

Shared fields: tests on isolated targets; agent: HIV-1; target: Protease; method: fluorescence; endpoint: IC50

Blank or dashed fields: not listed here.

COC(=O)CCCOc1ccc2ccc(OCCCC(=O)N[C@H](C(=O)N[C@@H](CC(C)C)C(=O)N[C@@H](CC(N)=O)C(=O)N[C@@H](Cc3ccccc3)C(=O)OC)[C@@H](C)O)cc2c1 ; result: >7 µM
Cc1cccc(C)c1OCC(=O)N[C@@H](Cc1ccccc1)C[C@@H](O)[C@H](Cc1ccccc1)NC(=O)[C@@H](NC(=O)c1cc(=O)c2ccccc2[nH]1)c1cccs1 ; result: 0.003 µM
COc1cccc(C(=O)N[C@@H](Cc2ccccc2)[C@H](O)CN2C[C@H]3CCCC[C@H]3C[C@H]2C(=O)NC(C)(C)C)c1C ; result: 0.0083 µg/mL
O=Cc1ccc(OCC(=O)N[C@@H](Cc2ccccc2)C[C@H](O)[C@H](Cc2ccccc2)NC(=O)COc2ccc(C=O)cc2)cc1 ; result: 19 µM
Cc1c(O)cccc1C(=O)N[C@@H](Cc1ccccc1)[C@@H](O)CN1CCN(Cc2cccnc2)C[C@H]1C(=O)NC(C)(C)C ; result: 0.002 µg/mL
CC(C)C[C@H](NC(=O)[C@@H](NC(=O)CCCCCNC(=O)[C@H](Cc1ccccc1)NC(=O)[C@H](CCC(=O)O)NC(=O)[C@H](Cc1ccccc1)NC[C@H](Cc1ccccc1)NC(=O)OC(C)(C)C)[C@@H](C)O)C(=O)N[C@@H](CC(N)=O)C(=O)N[C@@H](Cc1ccccc1)C(=O)O ; setting: pH 5.0 ; result: 0.021 µM
CC(=O)c1ccc(OCC(=O)N[C@@H](Cc2ccccc2)C[C@H](O)[C@H](Cc2ccccc2)NC(=O)COc2ccc(C(C)=O)cc2)cc1 ; result: 68 µM
CC(C)[C@H](NC(=O)[C@H](Cc1ccccc1)C[C@H](O)[C@H](Cc1ccccc1)NC(=O)OC(C)(C)C)C(=O)NCCN(C)C ; result: 0.003 µM
COc1cc(CN2C(=O)N(Cc3ccc(O)c(OC)c3)N(C(=O)CCc3ccc(OC)c(OC)c3)C[C@@H](O)[C@H]2Cc2ccccc2)ccc1O ; result: <0.0005 µM
CC(=O)N[C@H](C(=O)N[C@@H](CC(C)C)C(=O)N[C@@H](CC(N)=O)C(=O)N[C@@H](Cc1ccccc1)C(=O)O)[C@@H](C)O ; setting: pH 7.0 ; result: 29.5 µM
O=C(COc1ccccc1)N[C@@H](Cc1ccccc1)C[C@@H](O)[C@H](Cc1ccccc1)NC(=O)COc1ccccc1 ; result: 17 µM
COc1cc(CN2C(=O)N(Cc3ccc(O)c(OC)c3)N(C(=O)COc3ccccc3)C[C@@H](O)[C@H]2Cc2ccccc2)ccc1O ; result: <0.0005 µM
COCCCNC(=O)[C@@H](NC(=O)[C@H](Cc1ccc(OC)c(OC)c1OC)C[C@H](O)[C@H](Cc1ccccc1)NC(=O)OC(C)(C)C)C(C)C ; result: 0.008 µM
Cn1ccc2c(C(=O)N[C@@H](CSc3ccc4ccccc4c3)[C@H](O)Cc3ccccc3C(=O)NC(C)(C)C)cccc21 ; result: >15 µg/mL
COc1cc(CN2C(=O)N(Cc3ccc(O)c(OC)c3)N(C(=O)CCCc3ccccc3)C[C@@H](O)[C@H]2Cc2ccccc2)ccc1O ; result: <0.0005 µM
CCOCCNC(=O)[C@@H](NC(=O)[C@H](Cc1ccc(OC)c(OC)c1OC)C[C@H](O)[C@H](Cc1ccccc1)NC(=O)OC(C)(C)C)C(C)C ; result: 0.008 µM
Cc1c(NS(C)(=O)=O)cccc1C(=O)N[C@@H](Cc1ccccc1)[C@@H](O)CN1C[C@H]2CCCC[C@H]2C[C@H]1C(=O)NC(C)(C)C ; result: 0.093 µg/mL
COc1cc(CN2C(=O)N(Cc3ccc(O)c(OC)c3)N(C(=O)CCCc3cccs3)C[C@@H](O)[C@H]2Cc2ccccc2)ccc1O ; result: <0.0005 µM
CC(C)(C)NC(=O)[C@@H]1C[C@@H]2CCCC[C@@H]2CN1C[C@H](O)[C@H](Cc1ccccc1)NC(=O)c1cccc(Cl)c1Cl ; result: 0.0487 µg/mL
COCCNC(=O)[C@@H](NC(=O)[C@H](Cc1ccc(OC)c(OC)c1OC)C[C@H](O)[C@H](Cc1ccccc1)NC(=O)OC(C)(C)C)C(C)C ; result: <0.0005 µM
O=C(COc1ccccc1)N[C@@H](Cc1ccccc1)C[C@H](O)[C@H](Cc1ccccc1)NC(=O)COc1ccccc1 ; result: 5 µM
CC(C)[C@H](NC(=O)[C@H](Cc1ccccc1)C[C@H](O)[C@H](Cc1ccccc1)NC(=O)OC(C)(C)C)C(=O)N[C@@H](Cc1ccccc1)C(=O)N1CCOCC1 ; result: 0.009 µM
CC(C)(C)NC(=O)[C@@H]1CN(Cc2cccnc2)CCN1C[C@H](O)[C@@H](CSc1ccccc1)NC(=O)c1cccc2ncccc12 ; result: 0.0054 µg/mL
CC(C)[C@H](NC(=O)[C@H](Cc1ccc(O)cc1)C[C@H](O)[C@H](Cc1ccccc1)NC(=O)OC(C)(C)C)C(=O)N[C@@H](Cc1ccccc1)C(=O)N1CCOCC1 ; result: 0.002 µM

A second listing of 2 rows from above:

structure,setting,result
O=Cc1ccc(OCC(=O)N[C@@H](Cc2ccccc2)C[C@H](O)[C@H](Cc2ccccc2)NC(=O)COc2ccc(C=O)cc2)cc1,-,19 µM
CCOCCNC(=O)[C@@H](NC(=O)[C@H](Cc1ccc(OC)c(OC)c1OC)C[C@H](O)[C@H](Cc1ccccc1)NC(=O)OC(C)(C)C)C(C)C,-,0.008 µM

Conditions beyond the fields shown may differ between rows. ICn: concentration for n% inhibition.